A mixed list of measured activities; the numbers were collected in NIAID ChemDB.

Shared fields: growth or infection tests; species: Mycobacterium tuberculosis

Lines come from different laboratories, so protocols vary. MIC bound comes from a single tested concentration. Inhibition is in % at the dose shown (toxicity tests: loss of growth or viability). A number after MIC or MFC names an inhibition level or a share of isolates. Zones are inhibition diameters on agar. Blank or dashed fields: not listed here. ECn: concentration that inhibits the pathogen or its effect by n%.

| SMILES | tested at | read by | strain | setting | read-out | cell line | changes | result |
|---|---|---|---|---|---|---|---|---|
| O=C(OCCN=c1c2ccccc2ccc2ccccc12)c1cc([N+](=O)[O-])cc([N+](=O)[O-])c1 | - | BACTEC | H37Rv | - | MIC bound | - | - | >12.5 µg/mL |
| NNC(=O)c1ccncc1 | - | broth dilution | Erdman | - | MIC | - | - | 0.06 µg/mL |
| CNC(=S)N(c1ccc(F)c(Cl)c1)C1CCCCC1 | - | visual reading | - | - | MIC | - | - | 400 µg/mL |
| C=C(OCC)c1nc2c(Cl)ncnc2n1Cc1ccccc1 | - | BACTEC | H37Rv | - | EC50 | - | - | >12.5 µg/mL |
| CCCCCCOc1cccc(NC(=O)OCCN2CCOCC2)c1 | - | - | My 331/88 | - | MIC | - | - | 32 µM |
| O=C(NCc1ccc(N2CCN(Cc3ccccc3)CC2)nc1)c1ccc([N+](=O)[O-])o1 | - | - | H37Rv | - | MIC | - | - | 0.006 µg/mL |
| O=C(CSc1nnc(-c2ccccn2)s1)N/N=c1/scc(-c2cccc(Br)c2)n1-c1ccccc1 | - | - | H37Rv | - | MIC | - | - | 40 µg/mL |
| CC1CCCC(C)N1C(=O)c1noc2c1CC(C(C)(C)C)CC2 | - | resazurin | 18b | - | MIC | - | - | 8 µg/mL |
| N#Cc1ncnc2c1ncn2Cc1ccccc1 | - | BACTEC | H37Rv | - | EC50 | - | - | <12.5 µg/mL |
| CCCCCCCOc1ccccc1NC(=O)OCCN1CCCCCC1 | - | - | My 331/88 | - | MIC | - | - | 16 µM |
| O=c1c(O)c(-c2ccccc2)oc2c(F)cccc12 | - | - | H37Rv | - | MIC | - | - | >12.5 µg/mL |
| CC1COc2c(N3CCN(C)CC3)c(F)cc3c(=O)c(C(=O)O)cn1c23 | - | - | 37 strains (drug-resistant) | - | MIC90 | - | - | 2 µg/mL |
| O=C(NCC(c1cccs1)N1CCCCC1)c1cccs1 | - | resazurin | 18b | - | MIC | - | - | 8 µg/mL |
| CC(=O)OCCn1c2nc(=O)[nH]c(=O)c-2nc2cc(C)c(C)cc21 | - | BACTEC | H37Rv | - | MIC bound | - | - | >12.5 µg/mL |
| COc1ccc(-c2oc3ccc(Br)cc3c(=O)c2O)cc1 | 12.5 µg/mL | - | H37Rv | - | inhibition | - | - | 24% |
| COc1ccccc1N1C(=O)/C(=N\OC(=O)c2c(-c3c(Cl)cccc3Cl)noc2C)SC1=S | - | BACTEC | H37Rv | - | MIC bound | - | - | >12.8 µg/mL |
| CC(C)N(C(=S)Nc1ccccc1)c1ccc(Cl)c(Cl)c1 | - | visual reading | - | - | MIC | - | - | 400 µg/mL |
| CCOC(=O)/C=C/C(=O)O/C=C/[N+](=O)[O-] | - | resazurin | H37Rv | - | MIC bound | - | - | >6.25 µg/mL |
| Brc1ccccc1-c1nnc2sc(-c3ccncc3)nn12 | - | resazurin | Clinical isolate | - | MIC | - | - | 8 µg/mL |
| Nc1nc(/C=C/c2ccccc2)c2ncn(Cc3ccccc3)c2n1 | - | BACTEC | H37Rv | - | EC50 | - | - | >12.5 µg/mL |
| O=C(NNc1ccccc1)C(O)C(=O)C(O)C(O)C(O)CO | 12.5 µg/mL | BACTEC | H37Rv | - | inhibition | - | - | 9% |
| O=c1cc(-c2ccccc2)oc2ccc(F)cc12 | - | - | H37Rv | - | MIC | - | - | >12.5 µg/mL |
| COC(=O)c1ccccc1NC(=O)C(=O)CC(=O)c1ccccc1NC1=CC(=O)C(=O)c2ccccc21 | - | resazurin | H37Rv | - | MIC bound | - | - | >6.25 µg/mL |
| O=C(CSc1nnc(-c2ccccn2)s1)N/N=c1/scc(-c2ccccc2)n1-c1ccc(Cl)cc1 | - | - | H37Rv | - | MIC | - | - | 80 µg/mL |
| CN[C@@H]1[C@H](O[C@H]2[C@H](O[C@H]3[C@H](O)[C@@H](O)[C@H](N=C(N)N)[C@@H](O)[C@@H]3N=C(N)N)O[C@@H](C)[C@]2(O)C=O)O[C@@H](CO)[C@H](O)[C@H]1O | - | broth dilution | CDC1551 | - | MIC | - | - | 0.25 µg/mL |
| O=C(CSc1nnc(-c2ccccn2)s1)N/N=c1/scc(-c2ccccc2)n1-c1cccc(Br)c1 | - | - | Clinical isolate 180 | - | MIC | - | - | 40 µg/mL |
| CCCCCOc1ccc(NC(=O)OCCN2CCCCCC2)cc1 | - | - | My 331/88 | - | MIC | - | - | 16 µM |
| CCOP(=O)(OCC)/C(C#N)=C\c1cccn1C | - | BACTEC | H37Rv | - | MIC bound | - | - | >12.5 µg/mL |
| CC(c1cccs1)N(C(=S)Nc1ccccc1)c1ccc(F)c(Cl)c1 | 1000 µg/mL | visual reading | - | - | zone | - | - | 19.85 mm |
| CCOc1ccc2ccccc2c1C(=O)N[C@@H]1C(=O)N2[C@@H]1SC(C)(C)[C@@H]2C(=O)O | - | - | Isolate 3 | - | MIC | - | - | >16 µg/mL |
| O=C(CSc1nnc(-c2ccccn2)s1)N/N=c1/scc(-c2ccccc2)n1-c1ccccc1Cl | - | - | H37Rv | - | MIC | - | - | >80 µg/mL |
| Cc1cccc(/C=N/Nc2ccccn2)n1 | - | - | H37Rv | - | MIC | - | - | 6.25 µg/mL |
| COC(=O)c1cc(C2CCCC2)c2ccccc2n1 | 6.25 µg/mL | - | H37Rv | - | inhibition | - | - | 0% |
| CCCCCCCOc1cccc(NC(=O)OCCN2CCCCCC2)c1 | - | - | My 331/88 | - | MIC | - | - | 4 µM |
| COC(=O)C1CCCN1C(=O)C(Cc1cn(S(=O)(=O)c2ccc(C)cc2)cn1)NC(=O)OC(C)(C)C | - | resazurin | H37Rv | - | MIC bound | - | - | >6.25 µg/mL |
| CCc1cc(C(N)=S)ccn1 | - | - | H37Rv | - | MIC | - | - | 1.25 µg/mL |
| CCCCCCCOc1cccc(NC(=O)OCCN(C)C)c1 | - | - | My 331/88 | - | MIC | - | - | 8 µM |
| Clc1ccc2c(c1)nc(-c1ccccn1)n2CCc1ccncc1 | - | BACTEC | H37Rv | - | MIC bound | - | - | >6.25 µg/mL |
| CCCCCCCCCCOc1ccc(NC(=O)OCCN2CCCCC2)cc1 | - | - | My 331/88 | - | MIC | - | - | 8 µM |
| CC(=O)NC1=NN(C(C)=O)C2(S1)C(=O)N(C)c1ccc(F)cc12 | - | resazurin | Clinical isolate | - | MIC | - | - | 8 µg/mL |
| CCOC(=O)Cc1cc(C2C3CC4CC(C3)CC2C4)nc2ccccc12 | - | - | H37Rv | - | MIC | - | - | >6.25 µg/mL |
| COc1cccc(C(=O)O/N=C(\C)c2ccccn2)c1OC | - | resazurin | Clinical isolate | - | MIC | - | - | 8 µg/mL |
| CC(=O)OCC1=C(C(=O)O)N2C(=O)[C@@H](NC(=O)Cc3cccs3)[C@H]2SC1 | - | - | Isolate 3 | - | MIC | - | - | >16 µg/mL |
| Ic1nc2cncnc2n1Cc1ccccc1 | - | BACTEC | H37Rv | - | EC50 | - | - | >12.5 µg/mL |
| COc1ccc(C(=O)/C=C/c2ccco2)c(O)c1 | - | - | H37Rv | - | MIC | - | - | >12.5 µg/mL |
| O=C(CNC(=O)C(CCC(=O)OCc1ccccc1)NC(=O)OCc1ccccc1)NCC(=O)NC(CO)C(=O)NCC(=O)Oc1ccc([N+](=O)[O-])cc1 | - | BACTEC | H37Rv | - | MIC bound | - | - | >12.8 µg/mL |
| O=c1c(O)c(-c2cccc(Br)c2)oc2ccccc12 | - | - | H37Rv | - | MIC | - | - | >12.5 µg/mL |
| Cc1cc(C)c2c(=O)[nH][nH]c2n1 | - | BACTEC | H37Rv | - | MIC | - | - | ≥12.5 µg/mL |
| COC(=O)c1cc(C2C3CC4CC(C3)CC2C4)nc2ccccc12 | - | - | H37Rv | - | MIC | - | - | >6.25 µg/mL |
| CCCCSC1=C(C#N)C(=O)NC(C)S1 | - | resazurin | 18b | - | MIC | - | - | 8 µg/mL |
| CCCCCCOc1ccccc1NC(=O)OCCN1CCCCC1 | - | - | My 331/88 | - | MIC | - | - | 16 µM |
| CO[C@@]1(NC(=O)Cc2cccs2)C(=O)N2C(C(=O)O)=C(COC(N)=O)CS[C@@H]21 | - | - | H37Rv | - | MIC | - | - | >16 µg/mL |
| C=C/C(C)=C/[C@@]1(C)SC(=O)C(C)=C1O | - | - | PMH29:kasA/inhA | - | MIC | - | - | 30 µg/mL |
| CCCCCOc1cccc(NC(=O)OCCN2CCCCCC2)c1 | - | - | My 331/88 | - | MIC | - | - | 16 µM |
| O=C(O)c1cc(C2CCCCC2)c2ccccc2n1 | - | - | H37Rv | - | MIC | - | - | >6.25 µg/mL |
| O=C(/C=C/c1ccccc1)c1ccc(I)cc1O | - | - | H37Rv | - | MIC | - | - | >12.5 µg/mL |
| Clc1ncnc2c1nc(-c1ccccc1)n2Cc1ccccc1 | - | BACTEC | H37Rv | - | EC50 | - | - | >12.5 µg/mL |
| O=C1OCC2OC(=O)c3cc(O)c(O)c(O)c3-c3c(O)c(O)c(O)c4c3C(=O)OC(C2OC(=O)c2cc(O)c(O)c(O)c2-c2c1cc(O)c(O)c2O)C1OC(=O)c2c-4c(O)c(O)c(O)c2[C@H]1O | 12.5 µg/mL | BACTEC | H37Rv | - | inhibition | - | - | 10% |
| O=c1ccc2ncccc2n1CCN1CCC(NCc2cc(Cl)c(Cl)cn2)CC1 | - | resazurin | Erdman | - | MIC | - | - | 0.15 µg/mL |
| C[C@H]1COc2c(N3CCN(C)CC3)c(F)cc3c(=O)c(C(=O)O)cn1c23 | - | - | 45 strains (drug-susceptible) | - | MIC90 | - | - | 1 µg/mL |
| CNC(=S)N(Cc1ccco1)c1ccc(F)c(Cl)c1 | 1000 µg/mL | visual reading | - | - | zone | - | - | 12.6 mm |
| CO[C@H]1/C=C/O[C@@]2(C)Oc3c(C)c(O)c4c(O)c(c5c(c4c3C2=O)NC2(CCN(CC(C)C)CC2)N=5)=NC(=O)/C(C)=C\C=C\[C@H](C)[C@H](O)[C@@H](C)[C@@H](O)[C@@H](C)[C@H](OC(C)=O)[C@@H]1C | - | - | 22 strains | - | MIC50 | - | - | 0.025 µg/mL |
| O=[N+]([O-])c1cn2c(n1)OC[C@@H](OCc1ccc(OC(F)(F)F)cc1)C2 | - | - | UT15 | - | MIC | - | - | 0.024 µg/mL |
| COC1=C2CC(C)CC(OC)C(O)C(C)/C=C(\C)C(OC(N)=O)C(OC)/C=C\C=C(/C)C(=O)NC(=C(C=NN(C)C)C1=O)C2=O | - | BACTEC | H37Rv | - | MIC | - | - | ≥12.5 µg/mL |
| CC(=O)Nc1ccc(/C=N/NC(N)=S)cc1 | - | - | Isolate B drug-susceptible | - | MBC | - | - | 30 µg/mL |
| O=C1OC2C(O)C3CC1C2O3 | 12.5 µg/mL | BACTEC | H37Rv | - | inhibition | - | - | 20% |
| Ic1ncc2ncn(Cc3ccccc3)c2n1 | - | BACTEC | H37Rv | - | EC50 | - | - | >12.5 µg/mL |
| O=c1cc(-c2ccccc2)oc2cc(I)ccc12 | - | - | H37Rv | - | MIC | - | - | >12.5 µg/mL |
| Oc1c(Cl)c(N=Nc2nc3ccccc3s2)c(O)c2ccccc12 | - | BACTEC | H37Rv | - | MIC bound | - | - | ≤12.5 µg/mL |
| O=C(CSc1nnc(-c2ccccn2)s1)N/N=c1/scc(-c2ccc([N+](=O)[O-])cc2)n1-c1ccccc1 | - | - | H37Rv | - | MIC | - | - | 40 µg/mL |
| O=C([C@@H](O)CO)N1CC=C(c2c(F)cc(N3C[C@H](COc4ccon4)OC3=O)cc2F)CC1 | - | - | linezolid resistant 8.1 | - | MIC | - | T460C Cys154Arg | 16 µg/mL |
| CC(C)n1[nH]c(=O)c2c1NC(=O)CSC2c1ccccc1 | - | resazurin | Clinical isolate | - | MIC | - | - | 4 µg/mL |
| CC(=O)C1=C(O)C2(C)c3c(O)c(C)c(O)c(C(C)=O)c3OC2CC1=O | - | BACTEC | H37Rv | - | MIC | VERO | - | 12.5 µg/mL |
| c1ccc(Cn2cnc3c(-c4cccs4)ncnc32)cc1 | - | BACTEC | H37Rv | - | EC50 | - | - | <12.5 µg/mL |
| Cc1c(N=Nc2ccc(Br)cc2)c(-c2ccccc2)nn1C(=S)S | - | - | CS-R | - | MIC | - | - | 12.5 µg/mL |
| COC(=O)c1ccc2ccccc2n1 | - | - | H37Rv | - | MIC | - | - | >6.25 µg/mL |
| Cc1ccc(-n2c(-c3ccccc3)cs/c2=N/NC(=O)CSc2nnc(-c3ccccn3)s2)cc1 | - | - | Clinical isolate 180 | - | MIC | - | - | 40 µg/mL |
| CC(C)C(=O)N1c2ccccc2OC(=O)C1CC(=O)Nc1ccccc1 | - | resazurin | 18b | - | MIC | - | - | 8 µg/mL |
| O=C(/C=C/c1ccccc1I)c1ccccc1O | - | - | H37Rv | - | MIC | - | - | >12.5 µg/mL |
| CO[C@H]1/C=C/O[C@@]2(C)Oc3c(C)c(O)c4c(O)c(c(/C=N/N5CCN(C6CCCC6)CC5)c(O)c4c3C2=O)NC(=O)/C(C)=C\C=C\[C@H](C)[C@H](O)[C@@H](C)[C@@H](O)[C@@H](C)[C@H](O)[C@@H]1C | - | - | Erdman | - | MIC | - | - | 0.12 µg/mL |
| CC1COc2c(N3CCN(C)CC3)c(F)cc3c(=O)c(C(=O)O)cn1c23 | - | resazurin | Clinical isolate unspecified | clinical isolate | MIC | - | - | 0.3 µM |
| CNC(=S)N(c1ccc(F)c(Cl)c1)C(C)C | - | visual reading | - | - | MIC | - | - | >400 µg/mL |
| COC(=O)Cc1cc(C2CCCCC2)nc2c(C3CCCCC3)cccc12 | - | - | H37Rv | - | MIC | - | - | >6.25 µg/mL |
| C[C@]1(COc2ccc(N3CCC(Oc4ccc(OC(F)(F)F)cc4)CC3)cc2)Cn2cc([N+](=O)[O-])nc2O1 | - | - | CDC1551 | - | MIC | - | - | 0.2 µg/mL |
| COc1cc(N=Nc2cc(C)c(NC(=O)c3ccc(N)cc3)cc2C)c(OC)cc1N=Nc1ccc2cc(S(=O)(=O)O)ccc2c1 | - | BACTEC | H37Rv | - | MIC bound | - | - | >12.5 µg/mL |
| O=C(/C=C/c1ccccc1)c1cc(-c2ccccc2)ccc1O | - | - | H37Rv | - | MIC | - | - | >12.5 µg/mL |
| NC1=NN(c2ccccc2)C(=O)C1C(=O)C(=O)Nc1ccc(Cl)c(Cl)c1 | - | resazurin | H37Rv | - | MIC bound | - | - | >6.25 µg/mL |
| CC1(C)S[C@@H]2[C@H](NC(=O)[C@H](N)c3ccc(O)cc3)C(=O)N2[C@H]1C(=O)O | - | - | H37Rv | - | MIC | - | - | >16 µg/mL |
| C=C(OCC)c1nc(/C=C/c2ccccc2)c2ncn(Cc3ccccc3)c2n1 | - | BACTEC | H37Rv | - | EC50 | - | - | <12.5 µg/mL |